Tested on: HFB4 normal human skin cell line
Experiment: Biocompatibility, MTT assay
Type: cell-based
Details: 560 nm
Experimental: A complete monolayer sheet was created by incubating the 96-well tissue culture plate at 37 °C for 24 h following inoculation with 1 × 10^5 cells/ml (100 µl/well), following the procedure described by. Following the establishment of a confluent sheet of cells, the growth material was collected from the 96-well micro titer plates, and the cell monolayer underwent two washing media washes. […] They then evaluated 0.1 ml of each dilution in several wells. We looked at the cells for physical signs of toxicity, including granulation, rounding, shrinkage, and partial or complete loss of the monolayer. Following the phosphate buffer solution’s preparation, each well received 20 µl of a 5 mg/ml MTT (3-(4,5-dimethylthiazol-2-yl-)-2,5 diphenyltetrazolium bromide) solution from Bio Basic Canada Inc. After that, place it on a shaking table and shake it for five minutes at 150 rpm to completely integrate the MTT. to allow MTT to metabolize, followed by incubation for 4 h at 37 °C with 5% CO2. Media was taken out if necessary, and paper towels were used to wipe out any remaining material from the plate. One may re-dissolve formazan, a metabolic product of MTT, in 200 µL of DMSO. Put on a shaking table and shaken for five minutes at 150 rpm to fully mix the formazan and solvent. At 560 nm, optical density was measured, and at 620 nm, background was subtracted. There should be a direct relationship between optical density and cell number.3 [drawing 3]

COc1ccc(NC(=O)/C(C#N)=C/c2cn(-c3ccccc3)nc2-c2ccccc2)cc1 [3b]
Mean O.D (31.25 µg/ml): 0.5607
Mean O.D (62.5 µg/ml): 0.564
Mean O.D (125 µg/ml): 0.5637
Mean O.D (250 µg/ml): 0.5643
Mean O.D (500 µg/ml): 0.5643
Mean O.D (1000 µg/ml): 0.563

From paper PMC11800497, “Antifungal activity and biocompatibility assessment with molecular docking and dynamic simulations of new pyrazole derivatives” (BMC Biotechnology, 2025)
